# Single amino acid changes in Zika NS2B-NS3 and viral growth

Data from the supplement of Ni et al. 2025, doi:10.1038/s41467-025-63602-z.

Chain scanned (Zika virus MR766; NS2B from position 2 to 131, then the start of NS3):
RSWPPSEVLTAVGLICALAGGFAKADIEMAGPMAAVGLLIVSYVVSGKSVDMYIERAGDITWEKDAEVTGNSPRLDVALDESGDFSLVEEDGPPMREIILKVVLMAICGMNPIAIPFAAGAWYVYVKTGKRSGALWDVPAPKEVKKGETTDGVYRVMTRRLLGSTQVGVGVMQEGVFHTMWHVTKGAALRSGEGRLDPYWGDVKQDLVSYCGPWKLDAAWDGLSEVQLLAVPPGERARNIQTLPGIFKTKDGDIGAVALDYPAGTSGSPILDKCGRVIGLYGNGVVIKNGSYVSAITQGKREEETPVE

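Mutant virus pools were grown in human Huh-7.5 cells. Sequencing of three replicate libraries (two for positions 207-308) was averaged into one effect per change.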

The number is log2 of the effect relative to wild type; negative values mean reduced growth, higher values better tolerance. Each entry names the wild-type residue, its position and the residue put in its place.

{"substitution": "G70N", "effect (log2)": -6.07}
{"substitution": "S164E", "effect (log2)": -1.34}
{"substitution": "K248F", "effect (log2)": -3.41}
{"substitution": "D217*", "effect (log2)": -8.03}
{"substitution": "L79V", "effect (log2)": -3.79}
{"substitution": "S46I", "effect (log2)": -4.15}
{"substitution": "K145N", "effect (log2)": -1.64}
{"substitution": "V171N", "effect (log2)": -4.91}
{"substitution": "M52A", "effect (log2)": -6.71}
{"substitution": "E81S", "effect (log2)": -7.43}
{"substitution": "W122V", "effect (log2)": -6.08}
{"substitution": "L271A", "effect (log2)": -4.85}
{"substitution": "K300W", "effect (log2)": -4.04}
{"substitution": "R236K", "effect (log2)": 1.19}
{"substitution": "K185I", "effect (log2)": -5.90}
{"substitution": "A17W", "effect (log2)": -5.73}
{"substitution": "T179Q", "effect (log2)": -5.63}
{"substitution": "I240T", "effect (log2)": 1.09}
{"substitution": "Y199P", "effect (log2)": -6.16}
{"substitution": "Y292L", "effect (log2)": -6.14}
{"substitution": "Y261D", "effect (log2)": -3.59}
{"substitution": "L189A", "effect (log2)": -5.25}
{"substitution": "G194M", "effect (log2)": -5.42}
{"substitution": "W62A", "effect (log2)": -6.99}
{"substitution": "H178P", "effect (log2)": -6.50}
{"substitution": "P141N", "effect (log2)": -4.64}
{"substitution": "Y43F", "effect (log2)": -4.24}
{"substitution": "G284E", "effect (log2)": -5.31}
{"substitution": "I254A", "effect (log2)": -6.50}
{"substitution": "V183T", "effect (log2)": -5.67}
{"substitution": "L162E", "effect (log2)": -4.76}
{"substitution": "G234V", "effect (log2)": -6.45}
{"substitution": "S294R", "effect (log2)": -6.49}
{"substitution": "P233S", "effect (log2)": -7.07}
{"substitution": "R74I", "effect (log2)": -3.19}
{"substitution": "Q173T", "effect (log2)": -2.77}
{"substitution": "D59Q", "effect (log2)": -4.17}
{"substitution": "Y199T", "effect (log2)": -1.92}
{"substitution": "L14*", "effect (log2)": -7.26}
{"substitution": "P262S", "effect (log2)": -4.63}
{"substitution": "L79S", "effect (log2)": -7.62}
{"substitution": "L196H", "effect (log2)": -5.33}
{"substitution": "I15D", "effect (log2)": -6.52}
{"substitution": "Q173M", "effect (log2)": -2.21}
{"substitution": "G275R", "effect (log2)": -4.01}
{"substitution": "D197P", "effect (log2)": -2.65}
{"substitution": "D76M", "effect (log2)": -1.08}
{"substitution": "G279*", "effect (log2)": -7.38}
{"substitution": "K130L", "effect (log2)": -7.52}
{"substitution": "K300Y", "effect (log2)": -5.47}
{"substitution": "P93K", "effect (log2)": -5.82}
{"substitution": "Y199S", "effect (log2)": -2.30}
{"substitution": "T158M", "effect (log2)": -2.26}
{"substitution": "A256M", "effect (log2)": -5.75}
{"substitution": "R276T", "effect (log2)": -5.77}
{"substitution": "G133N", "effect (log2)": -5.24}
{"substitution": "T179W", "effect (log2)": -5.71}
{"substitution": "R276S", "effect (log2)": -2.76}
{"substitution": "M29G", "effect (log2)": -2.81}
{"substitution": "M157D", "effect (log2)": -4.36}
{"substitution": "E7Y", "effect (log2)": -6.11}
{"substitution": "V41E", "effect (log2)": -4.99}
{"substitution": "A34D", "effect (log2)": -6.42}
{"substitution": "D59R", "effect (log2)": -7.27}
{"substitution": "V50I", "effect (log2)": -1.65}
{"substitution": "Q173W", "effect (log2)": -2.41}
{"substitution": "P141K", "effect (log2)": -4.70}

The first 4 entries again:

substitution,effect (log2)
G70N,-6.07
S164E,-1.34
K248F,-3.41
D217*,-8.03

The region was split into three libraries (1-103, 104-206, 207-308). Six mutants with high scores were retested singly and none clearly outgrew wild type, so positive values are not proof of better growth. The authors count -1 or higher as tolerated. Position 1 is the last residue of NS2A. Stop codons (*) centre on -7 and mark the level of dead virus.